Results taken from paper PMC2946308, “Sialic acid transport and catabolism are cooperatively regulated by SiaR and CRP in nontypeable Haemophilus influenzae” (BMC Microbiology, 2010).

Experiments:
[1] = target: CRP (UniProt P29281); assay: EMSA; settings: 100 uM cAMP, 1 uM CRP; 150 mM KCl, 0.1 mM DTT, 0.1 mM EDTA, 10 mM Tris pH 7.4, 15 nM probe, room temperature 20 min; 6% gel, 0.5x TBE; recombinant protein; residues 1-224; protein details: C-terminal His tag (pET-24(+), pJJ276); label: none (SYBR Green stain); probe letters rebuilt from the primers and the genome
[2] = tested on: SiaR; assay: EMSA; settings: 150 mM KCl, 0.1 mM DTT, 0.1 mM EDTA, 10 mM Tris pH 7.4, 15 nM probe, room temperature 20 min, 6% gel, 0.5x TBE, recombinant protein, label: none (SYBR Green stain), probe letters rebuilt from the primers and the genome

Measured: binding result

ACACCCCTCATTTAAATCTGAATAAATCACTTTAAAATTAATTTAATCCACATAAAACAATCTTTTATAAATTGTAATATGCTTATATTTTCATCATTTAACATTATTATATGAAAAAGAAATGCCATTTTAAAGAATATTTTTGAAGTGTTTTTTCACAAATGTGATCAACTTCTCATTTTTGAAATAAAACTCGTAAAACTATTTTAAATTTGTTTTTTTACTCTTAGAATTGCTCTCGAATCCTATTTTGGGGG (double strand) [nan-siaPT intergenic region probe]
binds: [1] | [2]; 100 uM GlcN-6P, two-fold SiaR dilutions, slightly increased affinity | [2]; no GlcN-6P, 1 uM SiaR

The exact form of at least one protein or probe is not confirmed.
